Measured values published in paper PMC6753678, “Fueling Open Innovation for Malaria Transmission-Blocking Drugs: Hundreds of Molecules Targeting Early Parasite Mosquito Stages” (Frontiers in Microbiology, 2019).

Experiments:
[1] = tested on: P. falciparum female gametocytes; test: P. falciparum female gametogenesis assay (Pf FGAA)
[2] = tested on: P. falciparum late stage (stages IV-V) gametocytes; test: P. falciparum late stage gametocyte ATP depletion assay (Pf GC-ATP)
[3] = unified cytotox over Pf FGAA IC50, red: <10-fold selectivity, green: >10-fold
[4] = unified cytotox over Pf GC-ATP IC50, red: <10-fold selectivity, green: >10-fold
[5] = unified cytotox / IC50, <10-fold red, >10-fold green

Row | SMILES | Assay tox ratio Pf FGAA [1, 3] | Assay tox ratio Pf GC-ATP [2, 4] | Assay tox ratio Pf FGAA [1, 5] | Assay tox ratio Pf GC-ATP [2, 5]
1 | CCCOc1ccc2ccccc2c1CNCCCCCCNCc1c(OCCC)ccc2ccccc12.CS(=O)(=O)O [TCMDC-137966] | 2.46 | 7.49 |  | 
2 | CC(Cc1ccc(CNC(=O)c2ccc(CC(C)NCCc3cccc(Cl)c3)cc2)cc1)NCCc1cccc(Cl)c1 (centres unmarked) [TCMDC-139659] | 3.14 | 4.75 |  | 
3 | CS(=O)(=O)O.FC(F)(F)COc1ccc(CNCCCCCCNCc2ccc(OCC(F)(F)F)c3ccccc23)c2ccccc12 [TCMDC-137853] | 4.37 | 49.64 |  | 
4 | CCCCCCOc1ccc2ccccc2c1CNCCCCCCNCc1c(OCCCCCC)ccc2ccccc12.CS(=O)(=O)O [TCMDC-137963] | 1.90 | 5.94 |  | 
5 | Cc1ccc(C(=O)Nc2ccc(Nc3ccnc4cc(-c5ccccn5)ccc34)cc2O)cc1.Cl [TCMDC-138205] | 4.04 | 4.57 |  | 
6 | C#CCCOc1ccc2ccccc2c1CNCCCCCCNCc1c(OCCC#C)ccc2ccccc12 [TCMDC-137832] | 5.57 | 12.70 |  | 
7 | CC(Cc1ccc(OCCCCOc2ccccc2)cc1)NCCC1CCCN1C (centres unmarked) [TCMDC-140017] | 5.62 | 11.81 |  | 
8 | CCc1c(CCNCCCCCCNC(C)(C)Cc2ccc3c(c2CC)OCO3)ccc(OC)c1OC.Cl [TCMDC-132055] | 3.54 | 16.26 |  | 
9 | COc1cccc(OC)c1CN1CCC(N(C)CCCCCCCCCN2CCC(OC(=O)Nc3ccccc3-c3ccccc3)CC2)CC1 [TCMDC-134690] | 1.46 | 7.47 |  | 
10 | CN1CCN(CCCN(Cc2cccc(-c3ccc(CNC4CCCC4)cc3)c2)C(=O)/C=C/c2ccccc2)CC1.O=C(O)C(F)(F)F [TCMDC-140544] | 5.19 | 9.58 |  | 
11 | CC(C)COc1ccc2ccccc2c1CNCCCCCCNCc1c(OCC(C)C)ccc2ccccc12.CS(=O)(=O)O [TCMDC-137972] | 2.50 | 19.69 |  | 
12 | C[C@H](Cc1ccc(C[C@@H](C)NC[C@H](O)c2cccc(Cl)c2)cc1)NC[C@H](O)COc1ccccc1.Cl [TCMDC-131549] | 3.55 | 5.35 |  | 
13 | Cc1n[nH]c2ccc(-c3ccc4nccc(N5CCC(N)CC5)c4c3)cc12.Cl [TCMDC-134315] | 3.78 | 24.18 |  | 
14 | COc1ccc2c(OC)c(CNCCCCCCNCc3ccc4cc(OC)ccc4c3OC)ccc2c1.CS(=O)(=O)O [TCMDC-137953] | 2.66 | 1.73 |  | 
15 | ON=C1CCc2cc(-c3cc(-c4ccc(OC5CCNCC5)cc4)oc3-c3ccncc3)ccc21 [TCMDC-141381] | 29.72 | 21.93 |  | 
16 | C[C@H](Cc1ccc(Oc2ccc(C[C@@H](C)NC[C@H](O)c3cccc(Cl)c3)cc2)cc1)NC[C@H](O)c1cccc(Cl)c1.Cl [TCMDC-131560] | 2.73 | 7.32 |  | 
17 | COc1cc2nc(N3CCN(C(=O)c4c(Cl)nsc4-c4ccccc4Cl)CC3)nc(N)c2cc1OC.O=C(O)C(F)(F)F [TCMDC-138186] | 7.09 | 32.73 |  | 
18 | Cl.c1ccc2c(NCCCCCCCCCNc3ccnc4ccccc34)ccnc2c1 [TCMDC-137750] | 2.60 | 2.14 |  | 
19 | O=C(O)CCSSc1cccc[n+]1[O-] [TCMDC-141973] | 492.91 | 71.31 |  | 
20 | COc1ccc2c(c1CCNCCCCNCCc1c(OC)ccc3c1CCCC3)CCCC2.CS(=O)(=O)O [TCMDC-137324] | 1.90 | 8.10 |  | 
21 | CC1(C)CC(NCCCCCCCOc2ccc(OCc3ccccc3)cc2)CC(C)(C)N1.Cl [TCMDC-138958] | 2.33 | 4.23 |  | 
22 | CCCCOc1cc(OC)c2ccccc2c1CCNCCCCNCCc1c(OCCCC)cc(OC)c2ccccc12.CS(=O)(=O)O [TCMDC-137845] |  |  | 3.27 | 4.97
23 | N=C(/N=C(/NCCCCCCN/C(=N\C(=N)Nc1ccc(Cl)cc1)N1CCCCC1)N1CCCCC1)Nc1ccc(Cl)cc1 [TCMDC-131811] | 4.26 | 89.51 |  | 

Row | SMILES | Assay tox ratio Pf FGAA [1, 3] | Assay tox ratio Pf GC-ATP [2, 4] | Assay tox ratio Pf FGAA [1, 5] | Assay tox ratio Pf GC-ATP [2, 5]
24 | c1ccc2sc(Sc3ncnc4sccc34)nc2c1 [TCMDC-125539] | 734.82 | 201.34 |  | 
25 | COc1cc2ccccc2c(OC)c1CCNCCCCNCCc1c(OC)cc2ccccc2c1OC.CS(=O)(=O)O [TCMDC-137842] |  |  | 2.97 | 12.08
26 | C=CCC1OC(=O)c2cc(OC)cc(OC)c21 (centres unmarked) [TCMDC-138677] | 6.74 | 4.05 |  | 
27 | Fc1ccc(NC(S)=NN=Cc2ccccn2)cc1 [TCMDC-125521] | 3687.97 | 833.33 |  | 
28 | C=CCOc1ccc2ccccc2c1CNCCCCCCNCc1c(OCC=C)ccc2ccccc12.CS(=O)(=O)O [TCMDC-137340] | 2.75 | 7.71 |  | 
29 | COc1ccc(CNC2Cc3ccccc3C2)cc1-c1ccc(OC)c(S(=O)(=O)NCCN2CCCC2)c1.O=C(O)C(F)(F)F [TCMDC-132251] | 4.40 | 10.43 |  | 
30 | COc1cc(NCCCNCc2cn(Cc3cc(Br)cc(Br)c3)c3ccccc23)nc2ccccc12 [TCMDC-140677] | 5.86 | 8.53 |  | 
31 | COc1ccc(CNC(=O)c2cnc3c(O)cccc3c2Nc2cccc(NC(=O)c3ccc(Cl)c(Cl)c3)c2)cc1.O=C(O)C(F)(F)F [TCMDC-139607] | 0.97 | 2.29 |  | 
32 | Fc1ccc2[nH]c(-c3ccc(-c4ccc(CN5CCC(CCN6CCCCC6)CC5)cc4)cc3)nc2c1.O=C(O)C(F)(F)F [TCMDC-133924] | 2.71 | 10.04 |  | 
33 | COc1cccc(-c2csc(C(=O)NCC3CCN(Cc4ccc(C(C)(C)C)cc4)C3)c2)c1.O=C(O)C(F)(F)F (centres unmarked) [TCMDC-134447] | 11.68 | 33.21 |  | 
34 | COc1cc2nc(N3CCC(CNC(=O)c4ccc(-c5ccc(-c6noc(C)n6)cc5)cc4)CC3)nc(N)c2cc1OC [TCMDC-138754] | 4.40 | 41.95 |  | 
35 | CCCOc1ccc(CCNCCCCNCCc2ccc(OCCC)c3ccccc23)c2ccccc12.CS(=O)(=O)O [TCMDC-137952] | 3.89 | 28.58 |  | 
36 | COc1ccc2ccc(OC)c(CNCCCCCCNCc3c(OC)ccc4ccc(OC)cc34)c2c1.CS(=O)(=O)O [TCMDC-137796] | 2.77 | 11.78 |  | 
37 | CN(CCCNCc1ccc2ccccc2c1)CCCNCc1ccc2ccccc2c1.Cl [TCMDC-137908] |  |  | 55.19 | 96.93
38 | Cl.c1ccc2c(C3CCN(CCCCOc4ccc5c(c4)CCN(CC4CC4)CC5)CC3)c[nH]c2c1 [TCMDC-136244] | 5.20 | 8.42 |  | 
39 | CCn1c(Sc2ccc([N+](=O)[O-])c(C#N)c2)nnc1-c1cccc(Cl)c1 [TCMDC-135234] | 13.98 | 6.18 |  | 
40 | CCN(CC)/C(=N/C(=N)NCc1ccc(Cl)cc1Cl)NCCCCCCN/C(=N\C(=N)NCc1ccc(Cl)cc1Cl)N(CC)CC [TCMDC-131819] | 7.73 | 122.44 |  | 
41 | FC(F)(F)c1ccc2[nH]c(-c3ccc(-c4cccc(CN5CCC(CCN6CCCCC6)CC5)c4)cc3)nc2c1.O=C(O)C(F)(F)F [TCMDC-133941] | 3.12 | 7.70 |  | 
42 | CC(C)(C)c1ccc(CN2CCC(CNC(=O)c3cc(-c4ccccc4Cl)cs3)C2)cc1.O=C(O)C(F)(F)F (centres unmarked) [TCMDC-134445] | 7.13 | 10.48 |  | 
43 | COc1ccc2nc(-c3ccccc3)cc(NCCCNc3cc(-c4ccccc4)nc4ccc(OC)cc34)c2c1.Cl [TCMDC-137734] | 6.81 | 31.44 |  | 
44 | CCc1c(CCNCCCCCCNC(C)Cc2ccc3c(c2CC)OCO3)ccc(OC)c1OC.Cl (centres unmarked) [TCMDC-132052] | 5.78 | 8.55 |  | 
45 | C=C[C@H]1CN(CCCCCCC)CC[C@H]1CCNc1ccnc2ccc(OC)cc12 [TCMDC-139204] | 1.57 | 2.61 |  | 
46 | COc1cc2ccccc2cc1CCNCCCCNCCc1cc2ccccc2cc1OC.CS(=O)(=O)O [TCMDC-137944] | 4.09 | 24.05 |  | 
